The values below come from publication PMC1664607 (PLoS Medicine, 2006).

Structures are written as SMILES. No dose or concentration is given here for some results.

Series [1] has as its system M. bovis BCG Tokyo. It counts as cell-based. The following applies: 14C OPC-67683, 48 h incubation, after acetonitrile.
The nature of series [2]: Radioactivity distribution of 14C OPC-67683 in broth (control without bacterial culture). To be noted: Control: 14C OPC-67683 in 7H9/TN-ADC broth, 48 h.

In the case of `C[C@]1(COc2ccc(N3CCC(Oc4ccc(OC(F)(F)F)cc4)CC3)cc2)Cn2cc([N+](=O)[O-])nc2O1` [OPC-67683, (R)-2-methyl-6-nitro-2-(4-[4-(4-trifluoromethoxyphenoxy)piperidin-1-yl]phenoxymethyl}-2,3-dihydroimidazo[2,1-b]oxazole], the “Total DPM, Pellet” value in series [1] was 182886.84 DPM; in series [2], 24558.06 DPM. The “Total DPM, Supernatant” value in series [1] is on record as 678566.21 DPM; in series [2], 823295.30 DPM.
